The entries are a selection whose mix differs from that of the whole data set.
The targets below were run with CN(C)C1(CNC(=O)CCl)CCCCC1 (assay: log2 ratio of Biotin-Ahx-Ub-VS probe labelling (fragment/DMSO); higher = less target engagement (more negative = stronger competition), active = hit call of the paper (q ≤ 0.05, log2 ratio ≤ -1)). Conditions: compound concentration: 200 uM; treatment time: 3 h.
Experimental: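 Competitive ABPP in HEK293T cell lysate. Lysates were treated with each chloroacetamide fragment at 200 µM for 3 h, then with Biotin-Ahx-Ub-VS (0.5 µM, 1 h), NeutrAvidin-enriched and analysed by diaPASEF LC-MS/MS. Protein LFQ was median-normalised; average log2 ratio is fragment/DMSO from an unpaired t-test (n=3 treated, n=44 DMSO). Hits: q ≤ 0.05, log2 ratio ≤ -1, unique peptides ≥ 2.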

By UniProt entry, the sequences of proteins in these tests, tags left out.
UniProt Q96RU2, whole entry, looked up: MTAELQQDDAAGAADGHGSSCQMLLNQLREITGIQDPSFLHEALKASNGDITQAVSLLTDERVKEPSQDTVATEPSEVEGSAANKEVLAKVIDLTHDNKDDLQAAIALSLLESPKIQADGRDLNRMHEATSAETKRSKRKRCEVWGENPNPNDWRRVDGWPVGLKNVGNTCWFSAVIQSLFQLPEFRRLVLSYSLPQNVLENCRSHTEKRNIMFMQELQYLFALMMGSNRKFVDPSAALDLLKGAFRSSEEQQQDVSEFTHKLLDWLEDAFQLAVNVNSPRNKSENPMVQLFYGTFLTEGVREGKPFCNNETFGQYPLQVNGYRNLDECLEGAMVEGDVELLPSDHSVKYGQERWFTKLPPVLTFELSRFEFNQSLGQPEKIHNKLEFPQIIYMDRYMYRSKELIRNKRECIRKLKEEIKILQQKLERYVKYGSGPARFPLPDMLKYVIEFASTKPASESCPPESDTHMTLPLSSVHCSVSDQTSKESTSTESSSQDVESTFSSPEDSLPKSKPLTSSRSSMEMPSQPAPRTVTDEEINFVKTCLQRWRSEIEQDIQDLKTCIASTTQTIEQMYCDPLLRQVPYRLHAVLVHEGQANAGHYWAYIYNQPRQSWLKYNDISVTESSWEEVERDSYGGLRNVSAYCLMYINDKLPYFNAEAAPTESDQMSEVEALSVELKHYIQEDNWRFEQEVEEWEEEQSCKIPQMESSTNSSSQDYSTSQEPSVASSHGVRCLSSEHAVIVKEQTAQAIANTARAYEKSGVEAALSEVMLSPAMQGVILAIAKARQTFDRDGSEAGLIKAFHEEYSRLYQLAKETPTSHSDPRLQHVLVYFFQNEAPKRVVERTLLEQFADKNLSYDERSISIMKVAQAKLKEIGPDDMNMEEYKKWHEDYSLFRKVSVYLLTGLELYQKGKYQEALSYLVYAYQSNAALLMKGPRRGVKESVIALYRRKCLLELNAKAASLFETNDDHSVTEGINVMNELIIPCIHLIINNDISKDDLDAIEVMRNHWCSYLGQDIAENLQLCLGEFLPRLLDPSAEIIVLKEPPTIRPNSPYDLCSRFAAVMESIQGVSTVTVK
UniProt Q5T2D3, whole entry, looked up: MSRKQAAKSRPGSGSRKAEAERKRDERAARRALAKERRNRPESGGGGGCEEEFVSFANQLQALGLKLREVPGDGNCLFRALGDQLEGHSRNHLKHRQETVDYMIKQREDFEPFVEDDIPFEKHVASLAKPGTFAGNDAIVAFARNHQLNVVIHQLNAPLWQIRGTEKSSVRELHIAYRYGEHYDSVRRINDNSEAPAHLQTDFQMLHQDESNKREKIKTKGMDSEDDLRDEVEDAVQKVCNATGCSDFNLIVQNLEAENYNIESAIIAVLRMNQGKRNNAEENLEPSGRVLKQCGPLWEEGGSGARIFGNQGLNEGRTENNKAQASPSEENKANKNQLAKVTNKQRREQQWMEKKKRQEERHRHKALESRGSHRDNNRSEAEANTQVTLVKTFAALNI
UniProt Q92905, whole entry, looked up: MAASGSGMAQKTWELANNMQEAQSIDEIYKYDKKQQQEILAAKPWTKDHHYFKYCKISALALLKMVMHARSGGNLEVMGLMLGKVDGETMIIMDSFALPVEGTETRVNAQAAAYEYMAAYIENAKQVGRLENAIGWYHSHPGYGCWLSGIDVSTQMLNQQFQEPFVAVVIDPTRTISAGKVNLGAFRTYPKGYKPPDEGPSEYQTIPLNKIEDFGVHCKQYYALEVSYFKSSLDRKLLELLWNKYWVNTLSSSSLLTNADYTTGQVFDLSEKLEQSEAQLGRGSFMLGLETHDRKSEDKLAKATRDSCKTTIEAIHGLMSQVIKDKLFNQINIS
UniProt Q9UPT9, whole entry, looked up: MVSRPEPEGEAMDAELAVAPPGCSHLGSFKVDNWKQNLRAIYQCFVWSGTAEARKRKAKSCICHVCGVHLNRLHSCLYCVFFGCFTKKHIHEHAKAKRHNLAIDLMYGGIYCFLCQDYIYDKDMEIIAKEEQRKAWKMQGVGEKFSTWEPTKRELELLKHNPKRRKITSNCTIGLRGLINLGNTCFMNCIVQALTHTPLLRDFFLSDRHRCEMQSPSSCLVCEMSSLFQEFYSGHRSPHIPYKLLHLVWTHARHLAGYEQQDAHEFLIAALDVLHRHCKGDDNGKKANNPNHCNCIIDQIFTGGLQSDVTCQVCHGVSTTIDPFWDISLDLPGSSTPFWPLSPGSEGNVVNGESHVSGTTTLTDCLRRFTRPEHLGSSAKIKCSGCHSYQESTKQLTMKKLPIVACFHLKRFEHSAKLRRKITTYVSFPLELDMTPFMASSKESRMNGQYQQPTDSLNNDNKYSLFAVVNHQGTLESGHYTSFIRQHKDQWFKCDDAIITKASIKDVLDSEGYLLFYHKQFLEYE
UniProt Q96FW1, whole entry, looked up: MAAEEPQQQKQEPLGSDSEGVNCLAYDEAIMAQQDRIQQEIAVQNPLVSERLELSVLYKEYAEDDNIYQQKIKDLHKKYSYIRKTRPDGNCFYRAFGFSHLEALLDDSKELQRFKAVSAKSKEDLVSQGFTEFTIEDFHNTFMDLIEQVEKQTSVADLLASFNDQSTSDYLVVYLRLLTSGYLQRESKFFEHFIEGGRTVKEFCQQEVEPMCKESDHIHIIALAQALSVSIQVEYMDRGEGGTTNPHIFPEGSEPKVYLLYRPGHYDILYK
UniProt Q9P275, whole entry, looked up: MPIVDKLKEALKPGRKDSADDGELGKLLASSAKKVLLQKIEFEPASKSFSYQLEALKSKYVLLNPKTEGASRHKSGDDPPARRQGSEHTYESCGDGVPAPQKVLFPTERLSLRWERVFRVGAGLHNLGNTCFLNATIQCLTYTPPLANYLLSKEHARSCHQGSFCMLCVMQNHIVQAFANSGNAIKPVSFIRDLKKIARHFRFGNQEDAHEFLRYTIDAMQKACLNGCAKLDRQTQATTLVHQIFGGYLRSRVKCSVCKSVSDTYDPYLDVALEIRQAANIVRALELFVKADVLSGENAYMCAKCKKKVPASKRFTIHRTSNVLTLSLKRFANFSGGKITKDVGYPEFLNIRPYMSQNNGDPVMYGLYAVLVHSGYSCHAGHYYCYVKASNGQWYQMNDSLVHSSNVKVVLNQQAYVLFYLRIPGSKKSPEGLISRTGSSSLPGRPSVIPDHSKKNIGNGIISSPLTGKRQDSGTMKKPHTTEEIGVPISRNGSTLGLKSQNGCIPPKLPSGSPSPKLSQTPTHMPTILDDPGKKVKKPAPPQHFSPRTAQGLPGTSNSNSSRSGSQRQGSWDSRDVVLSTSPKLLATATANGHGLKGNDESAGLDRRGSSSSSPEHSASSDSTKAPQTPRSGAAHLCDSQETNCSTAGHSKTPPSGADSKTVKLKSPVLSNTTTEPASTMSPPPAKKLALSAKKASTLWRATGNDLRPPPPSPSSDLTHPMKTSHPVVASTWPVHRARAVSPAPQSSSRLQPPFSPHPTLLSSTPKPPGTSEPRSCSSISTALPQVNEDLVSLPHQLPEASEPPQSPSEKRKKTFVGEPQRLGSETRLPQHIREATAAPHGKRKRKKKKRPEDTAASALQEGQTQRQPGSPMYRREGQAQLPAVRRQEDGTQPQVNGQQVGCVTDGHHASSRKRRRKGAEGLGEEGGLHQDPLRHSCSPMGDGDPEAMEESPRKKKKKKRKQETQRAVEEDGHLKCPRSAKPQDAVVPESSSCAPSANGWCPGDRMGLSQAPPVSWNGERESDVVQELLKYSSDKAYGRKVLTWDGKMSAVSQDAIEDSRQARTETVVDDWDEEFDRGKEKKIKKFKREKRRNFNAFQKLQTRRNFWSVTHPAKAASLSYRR
UniProt Q96G74, whole entry, looked up: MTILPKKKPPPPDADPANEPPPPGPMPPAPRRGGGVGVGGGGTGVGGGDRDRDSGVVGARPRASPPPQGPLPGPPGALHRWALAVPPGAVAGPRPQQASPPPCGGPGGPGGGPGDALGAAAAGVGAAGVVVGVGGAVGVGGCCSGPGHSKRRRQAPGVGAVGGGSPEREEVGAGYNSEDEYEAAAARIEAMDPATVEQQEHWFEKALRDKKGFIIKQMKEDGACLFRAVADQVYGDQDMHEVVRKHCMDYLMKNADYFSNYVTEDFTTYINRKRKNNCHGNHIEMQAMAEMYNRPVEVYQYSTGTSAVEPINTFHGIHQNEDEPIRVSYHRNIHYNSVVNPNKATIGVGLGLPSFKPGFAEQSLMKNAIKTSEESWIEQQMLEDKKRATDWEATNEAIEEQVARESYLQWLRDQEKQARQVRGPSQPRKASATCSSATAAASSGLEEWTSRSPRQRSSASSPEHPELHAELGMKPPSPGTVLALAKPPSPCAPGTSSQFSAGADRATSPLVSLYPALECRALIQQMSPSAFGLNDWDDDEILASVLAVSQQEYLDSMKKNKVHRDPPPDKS
UniProt P54578, whole entry, looked up: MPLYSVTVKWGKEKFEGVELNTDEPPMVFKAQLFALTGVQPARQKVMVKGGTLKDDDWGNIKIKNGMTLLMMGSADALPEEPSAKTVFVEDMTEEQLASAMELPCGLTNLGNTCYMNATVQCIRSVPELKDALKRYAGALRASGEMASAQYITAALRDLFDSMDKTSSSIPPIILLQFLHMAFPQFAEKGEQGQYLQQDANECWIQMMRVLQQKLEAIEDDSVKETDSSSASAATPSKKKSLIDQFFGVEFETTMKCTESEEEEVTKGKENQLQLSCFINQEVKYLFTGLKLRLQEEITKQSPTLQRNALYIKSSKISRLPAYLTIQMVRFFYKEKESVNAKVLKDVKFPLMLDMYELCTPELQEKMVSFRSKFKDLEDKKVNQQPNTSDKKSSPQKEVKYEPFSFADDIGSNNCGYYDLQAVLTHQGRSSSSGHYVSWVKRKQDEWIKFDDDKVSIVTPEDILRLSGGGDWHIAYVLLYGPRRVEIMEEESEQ

Row | Target | log2 ratio of Biotin-Ahx-Ub-VS probe labelling
1 | UniProt Q96RU2 | inactive: -0.485
2 | UniProt Q5T2D3 | inactive: -0.401
3 | UniProt Q6P2Q9 | inactive: 0.0605
4 | UniProt Q92905 | inactive: 0.0465
5 | UniProt Q9UPT9 | inactive: -0.115
6 | UniProt Q96FW1 | inactive: 0.134
7 | UniProt Q9P275 | inactive: -0.237
8 | UniProt Q96G74 | inactive: -0.425
9 | UniProt P54578 | inactive: -0.311

Source: the supplement of paper PMC11732987, “Enantioselective OTUD7B fragment discovery through chemoproteomics screening and high-throughput optimisation” (Communications Chemistry, 2025)
